From US20160287666A1 come the findings set out here.

B1: NV1G1972 (peptide)
peptide: GPGWCGDPGATCGKLRLYCCSGFCDAYTKTCKDKSSAGGGGSAPAPAPAPAPAPAPAPAPAPAPAPAPAPAPGGGGSQCQKWMQTCDRERKCCEGFVCTLWCRKKLW
modifications: not checked
B2: NV1G1954 (peptide)
peptide: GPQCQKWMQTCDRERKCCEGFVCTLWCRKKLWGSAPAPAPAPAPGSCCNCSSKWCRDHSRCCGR
modifications: not checked
B3: NV1G2057 (peptide)
peptide: GPQCQKWMQTCDRERKCCEGFVCTLWCRKKLWGSAPAPAPAPAPGSCCNCSSKWCRDHSRCC
modifications: not checked
B4: NV1G1974 (peptide)
peptide: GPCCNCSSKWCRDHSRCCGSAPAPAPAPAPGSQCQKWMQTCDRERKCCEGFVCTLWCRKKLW
modifications: not checked
B5: NV1G1969 (peptide)
peptide: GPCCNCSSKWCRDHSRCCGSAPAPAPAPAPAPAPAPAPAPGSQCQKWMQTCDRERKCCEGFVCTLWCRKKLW
modifications: not checked

This assay deals with human Nav1.7 (human), Q15858. Put plainly: cell-based or functional assay.
The molecule B1 came in with a Nav1.7 IC50 (nM), FLIPR Tetra membrane depolarization of 110 nM.

Take B2: the Nav1.7 IC50 (nM), FLIPR Tetra was 60.9 nM.

On to GPRRRRRRRRRRRQCQKWMQTCDRERKCCEGFVCTLWCRKKLW (modifications not checked) [NV1G1981], for which the Nav1.7 IC50 (nM), FLIPR Tetra membrane depolarization came to 102 nM.

For B3, the Nav1.7 IC50 (nM), FLIPR Tetra was determined as 50.6 nM; the hNav1.7 QP % blk @ 30 nM came out at 22.2%; the hNav1.7 TETRA IC50 was 50.6 nM.

Take GPCRTIGPSVCQCQKWMQTCDRERKCCEGFVCTLWCRKKLW (modifications not checked) [NV1G2043]: the hNav1.7 QP IC50 is 58.7 nM.

For the molecule B4, the Nav1.7 IC50 (nM), FLIPR Tetra membrane depolarization stood at 110 nM.

In turn, GPQRFVTGHFGGLYPANGQCQKWMQTCDRERKCCEGFVCTLWCRKKLW (modifications not checked) [NV1G1980] gave a Nav1.7 IC50 (nM), FLIPR Tetra membrane depolarization of 101 nM.

GPSPGARAFAPAPAQCQKWMQTCDRERKCCEGFVCTLWCRKKLW (modifications not checked) [NV1G1961] came in with a Nav1.7 IC50 (nM), FLIPR Tetra membrane depolarization of 68 nM.

Molecule GPYCQKWMQTCDAERKCCEGFSCTLWCKKKLW (modifications not checked) [NV1G1862] gave a Nav1.7 IC50 (nM), FLIPR Tetra membrane depolarization of 100 nM.

GPQCQKWMQTCDARRKCCEGFVCRLWCKKKLW (modifications not checked) [NV1G1519] registered a hNav1.7 QP % blk @ 10 nM of 52.3%.

In turn, B5 came in with a Nav1.7 IC50 (nM), FLIPR Tetra membrane depolarization of 100 nM.

GPQCQAWMQTCDRERKCCEGFVCTLWCRKKLW (modifications not checked) [NV1G1771] registered a Nav1.7 IC50 (nM), FLIPR Tetra membrane depolarization of 70.6 nM.

In turn, GPQCQKWMQTCDRERKCCEGFVCTLWCRKTLW (modifications not checked) [NV1G1806] registered a Nav1.7 IC50 (nM), FLIPR Tetra membrane depolarization of 79.1 nM.

GPQCQKWMQTCDRERKCCEGFVCTLWCRKSLW (modifications not checked) [NV1G1850] showed a Nav1.7 IC50 (nM), FLIPR Tetra membrane depolarization of 102 nM.

Take GPQCQKWMQTCKRKEKCCEGFVCTLWCRKKLW (modifications not checked) [NV1G1844]: the Nav1.7 IC50 (nM), FLIPR Tetra membrane depolarization was found to be 180 nM.

As for GPQCQKWMQTCDEERKCCEGFVCTLWCRKKLW (modifications not checked) [NV1G1922], the Nav1.7 IC50 (nM), FLIPR Tetra membrane depolarization was found to be 108 nM.

Turning to GPQCQKWMQTCDRERKCCERFVCTLWCRKKLW (modifications not checked) [NV1G1851], the Nav1.7 IC50 (nM), FLIPR Tetra membrane depolarization stood at 108 nM.

Molecule GPQCQKWMQTCDRERKCCEGFVCTLWCRKKLD (modifications not checked) [NV1G1793] registered a Nav1.7 IC50 (nM), FLIPR Tetra membrane depolarization of 80.9 nM.

On to GPQCQDWMQTCDRERKCCEGFVCTLWCRKKLW (modifications not checked) [NV1G1778], for which the Nav1.7 IC50 (nM), FLIPR Tetra membrane depolarization stood at 109 nM.

GPACQKWMQTCDRNRKCCEGFSCTLWCRKKLW (modifications not checked) [NV1G1867] displayed a Nav1.7 IC50 (nM), FLIPR Tetra membrane depolarization of 76 nM.
